Data from patent publication US20250283886.

Tests used:
FFPFFP{LYSN3}NH2 = target: T1, FFPFFP{LYSN3}NH2
T1 chain: FFPFFPX

EEPFQQ = target: T2, EEPFQQ
T2 chain: EEPFQQ

WWPFQQ = target: T3, WWPFQQ
T3 chain: WWPFQQ

LLPFQQ = target: T4, LLPFQQ
T4 chain: LLPFQQ

IIPFQQ = target: T5, IIPFQQ
T5 chain: IIPFQQ

AAPFQQ = target: T6, AAPFQQ
T6 chain: AAPFQQ

YYPFQQ = target: T7, YYPFQQ
T7 chain: YYPFQQ

FYPLPWPDDDY{LYSN3}NH2 = target: T8, FYPLPWPDDDY{LYSN3}NH2
T8 chain: FYPLPWPDDDYX

HHPFQQ = target: T9, HHPFQQ
T9 chain: HHPFQQ

QQPFQQ = target: T10, QQPFQQ
T10 chain: QQPFQQ

NNPFQQ = target: T11, NNPFQQ
T11 chain: NNPFQQ

SSPFQQ = target: T12, SSPFQQ
T12 chain: SSPFQQ

AAPAAP{LYSN3}NH2 = target: T13, AAPAAP{LYSN3}NH2
T13 chain: AAPAAPX

PLPWPDDDY{LYSN3}NH2 = target: T14, PLPWPDDDY{LYSN3}NH2
T14 chain: PLPWPDDDYX

DDPFQQ = target: T15, DDPFQQ
T15 chain: DDPFQQ

TTPFQQ = target: T16, TTPFQQ
T16 chain: TTPFQQ

CCPFQQ = target: T17, CCPFQQ
T17 chain: CCPFQQ

MMPFQQ = target: T18, MMPFQQ
T18 chain: MMPFQQ

PPPFQQ = target: T19, PPPFQQ
T19 chain: PPPFQQ

YAAFAAWADDDW1 = target: T20, YAAFAAWADDDW1
T20 chain: YAAFAAWADDDW

FFPFQQ = target: T21, FFPFQQ
T21 chain: FFPFQQ

GGPFQQ = target: T22, GGPFQQ
T22 chain: GGPFQQ

RRPFQQ = target: T23, RRPFQQ
T23 chain: RRPFQQ

VVPFQQ = target: T24, VVPFQQ
T24 chain: VVPFQQ

DDMDDM{LYSN3}NH2 = target: T25, DDMDDM{LYSN3}NH2
T25 chain: DDMDDMX

YYPYYP{LYSN3}NH2 = target: T26, YYPYYP{LYSN3}NH2
T26 chain: YYPYYPX

KKPFQQ = target: T27, KKPFQQ
T27 chain: KKPFQQ

YPYPYP{LYSN3}NH2 = target: T28, YPYPYP{LYSN3}NH2
T28 chain: YPYPYPX

B1: Pyrococcus horikoshii TET aminopeptidase (protein)
chain: MEVRNMVDYELLKKVVEAPGVSGYEFLGIRDVVIEEIKDYVDEVKVDKLGNVIAHKKGEGPKVMIAAHMDQIGLMVTHIEKNGFLRVAPIGGVDPKTLIAQRFKVWIDKGKFIYGVGASVPPHIQKPEDRKKAPDWDQIFIDIGAESKEEAEDMGVKIGTVITWDGRLERLGKHRFVSIAFDDRIAVYTILEVAKQLKDAKADVYFVATVQEEVGLRGARTSAFGIEPDYGFAIDVTIAADIPGTPEHKQVTHLGKGTAIKIMDRSVICHPTIVRWLEELAKKHEIPYQLEILLGGGTDAGAIHLTKAGVPTGALSVPARYIHSNTEVVDERDVDATVELMTKALENIHELKI
FFPFFP{LYSN3}NH2
  HPLC Assay Conv; 1 mM peptide, 1 mM enzyme, 70 C/1 hr: 100%
EEPFQQ
  HPLC Assay Conv; 1 mM Peptide, 1 uM enzyme, RT/0.5 hr: 0%
WWPFQQ
  HPLC Assay Conv; 1 mM Peptide, 1 uM enzyme, RT/0.5 hr: 4%
LLPFQQ
  HPLC Assay Conv; 1 mM Peptide, 1 uM enzyme, RT/0.5 hr: 100%
IIPFQQ
  HPLC Assay Conv; 1 mM Peptide, 1 uM enzyme, RT/0.5 hr: 100%
AAPFQQ
  HPLC Assay Conv; 1 mM Peptide, 1 uM enzyme, RT/0.5 hr: 100%
YYPFQQ
  HPLC Assay Conv; 1 mM Peptide, 1 uM enzyme, RT/0.5 hr: 99%
FYPLPWPDDDY{LYSN3}NH2
  HPLC Assay Conv; 200 uM Peptide, 2 uM enzyme, MgCl2/MOPS pH 8.0, 37 C/1 hr: 55%
  HPLC Assay Conv; 200 uM Peptide, 2 uM enzyme, ZnCl2/Tris pH 8.0, 37 C/1 hr: 55%
HHPFQQ
  HPLC Assay Conv; 1 mM Peptide, 1 uM enzyme, RT/0.5 hr: 26%
QQPFQQ
  HPLC Assay Conv; 1 mM Peptide, 1 uM enzyme, RT/0.5 hr: 63%
NNPFQQ
  HPLC Assay Conv; 1 mM Peptide, 1 uM enzyme, RT/0.5 hr: 69%
SSPFQQ
  HPLC Assay Conv; 1 mM Peptide, 1 uM enzyme, RT/0.5 hr: 100%
AAPAAP{LYSN3}NH2
  HPLC Assay Conv; 1 mM peptide, 1 mM enzyme, 70 C/1 hr: 100%
PLPWPDDDY{LYSN3}NH2
  HPLC Assay Conv; 200 uM Peptide, 4 uM enzyme, 37 C/1 hr: 100%
DDPFQQ
  HPLC Assay Conv; 1 mM Peptide, 1 uM enzyme, RT/0.5 hr: 4%
TTPFQQ
  HPLC Assay Conv; 1 mM Peptide, 1 uM enzyme, RT/0.5 hr: 100%
CCPFQQ
  HPLC Assay Conv; 1 mM Peptide, 1 uM enzyme, RT/0.5 hr: 32%
MMPFQQ
  HPLC Assay Conv; 1 mM Peptide, 1 uM enzyme, RT/0.5 hr: 0%
PPPFQQ
  HPLC Assay Conv; 1 mM Peptide, 1 uM enzyme, RT/0.5 hr: 0%
YAAFAAWADDDW1
  HPLC Assay Conv; 1 mM Peptide, 1.0 uM enzyme, RT/0.5 hr: 100%
FFPFQQ
  HPLC Assay Conv; 1 mM Peptide, 1 uM enzyme, RT/0.5 hr: 100%
GGPFQQ
  HPLC Assay Conv; 1 mM Peptide, 1 uM enzyme, RT/0.5 hr: 33%
RRPFQQ
  HPLC Assay Conv; 1 mM Peptide, 1 uM enzyme, RT/0.5 hr: 0%
VVPFQQ
  HPLC Assay Conv; 1 mM Peptide, 1 uM enzyme, RT/0.5 hr: 100%
DDMDDM{LYSN3}NH2
  HPLC Assay Conv; 1 mM peptide, 1 mM enzyme, 70 C/1 hr: 60%
YYPYYP{LYSN3}NH2
  HPLC Assay Conv; 1 mM peptide, 1 mM enzyme, 70 C/1 hr: 100%
KKPFQQ
  HPLC Assay Conv; 1 mM Peptide, 1 uM enzyme, RT/0.5 hr: 0%

B2: L. pneumophila M1 aminopeptidase (protein)
chain: MMVKQGVFMKTDQSKVKKLSDYKSLDYFVIHVDLQIDLSKKPVESKARLTVVPNLNVDSHSNDLVLDGENMTLVSLQMNDNLLKENEYELTKDSLIIKNIPQNTPFTIEMTSLLGENTDLFGLYETEGVALVKAESEGLRRVFYLPDRPDNLATYKTTIIANQEDYPVLLSNGVLIEKKELPLGLHSVTWLDDVPKPSYLFALVAGNLQRSVTYYQTKSGRELPIEFYVPPSATSKCDFAKEVLKEAMAWDERTFNLECALRQHMVAGVDKYASGASEPTGLNLFNTENLFASPETKTDLGILRVLEVVAHEFFHYWSGDRVTIRDWFNLPLKEGLTTFRAAMFREELFGTDLIRLLDGKNLDERAPRQSAYTAVRSLYTAAAYEKSADIFRMMMLFIGKEPFIEAVAKFFKDNDGGAVTLEDFIESISNSSGKDLRSFLSWFTESGIPELIVTDELNPDTKQYFLKIKTVNGRNRPIPILMGLLDSSGAEIVADKLLIVDQEEIEFQFENIQTRPIPSLLRSFSAPVHMKYEYSYQDLLLLMQFDTNLYNRCEAAKQLISALINDFCIGKKIELSPQFFAVYKALLSDNSLNEWMLAELITLPSLEELIENQDKPDFEKLNEGRQLIQNALANELKTDFYNLLFRIQISGDDDKQKLKGFDLKQAGLRRLKSVCFSYLLNVDFEKTKEKLILQFEDALGKNMTETALALSMLCEINCEEADVALEDYYHYWKNDPGAVNNWFSIQALAHSPDVIERVKKLMRHGDFDLSNPNKVYALLGSFIKNPFGFHSVTGEGYQLVADAIFDLDKINPTLAANLTEKFTYWDKYDVNRQAMMISTLKIIYSNATSSDVRTMAKKGLDKVKEDLPLPIHLTFHGGSTMQDRTAQLIADGNKENAYQLH
EEPFQQ
  HPLC Assay Conv; 1 mM Peptide, 1.3 uM enzyme, RT/0.5 hr: 31%
WWPFQQ
  HPLC Assay Conv; 1 mM Peptide, 1.3 uM enzyme, RT/0.5 hr: 0%
LLPFQQ
  HPLC Assay Conv; 1 mM Peptide, 1.3 uM enzyme, RT/0.5 hr: 0%
IIPFQQ
  HPLC Assay Conv; 1 mM Peptide, 1.3 uM enzyme, RT/0.5 hr: 42%
AAPFQQ
  HPLC Assay Conv; 1 mM Peptide, 1.3 uM enzyme, RT/0.5 hr: 0%
YYPFQQ
  HPLC Assay Conv; 1 mM Peptide, 1.3 uM enzyme, RT/0.5 hr: 0%
QQPFQQ
  HPLC Assay Conv; 1 mM Peptide, 1.3 uM enzyme, RT/0.5 hr: 0%
NNPFQQ
  HPLC Assay Conv; 1 mM Peptide, 1.3 uM enzyme, RT/0.5 hr: 0%
SSPFQQ
  HPLC Assay Conv; 1 mM Peptide, 1.3 uM enzyme, RT/0.5 hr: 0%
DDPFQQ
  HPLC Assay Conv; 1 mM Peptide, 1.3 uM enzyme, RT/0.5 hr: 21%
TTPFQQ
  HPLC Assay Conv; 1 mM Peptide, 1.3 uM enzyme, RT/0.5 hr: 0%
CCPFQQ
  HPLC Assay Conv; 1 mM Peptide, 1.3 uM enzyme, RT/0.5 hr: 0%
FFPFQQ
  HPLC Assay Conv; 1 mM Peptide, 1.3 uM enzyme, RT/0.5 hr: 0%
RRPFQQ
  HPLC Assay Conv; 1 mM Peptide, 1.3 uM enzyme, RT/0.5 hr: 0%
VVPFQQ
  HPLC Assay Conv; 1 mM Peptide, 1.3 uM enzyme, RT/0.5 hr: 0%
DDMDDM{LYSN3}NH2
  HPLC Assay Conv; 1 mM peptide, 1 mM enzyme, 30 C/1 hr: 100%
KKPFQQ
  HPLC Assay Conv; 1 mM Peptide, 1.3 uM enzyme, RT/0.5 hr: 0%

B3: K287pAzF-Cy3 yPIP (protein)
chain: MTQQEYQNRRQALLAKMAPGSAAIIFAAPEATRSADSEYPYRQNSDFSYLTGFNEPEAVLILVKSDETHNHSVLFNRIRDLTAEIWFGRRLGQEAAPTKLAVDRALPFDEINEQLYLLLNRLDVIYHAQGQYAYADNIVFAALEKLRHGFRKNLRAPATLTDWRPWLHEMRLFKSAEEIAVLRRAGEISALAHTRAMEKCRPGMFEYQLEGEILHEFTRHGARYPAYNTIVGGGENGCILHYTENECELRDGDLVLIDAGCEYRGYAGDITRTFPVNGKFTPAQRAVYDIVLAAINKSLTLFRPGTSIREVTEEVVRIMVVGLVELGILKGDIEQLIAEQAHRPFFMHGLSHWLGMDVHDVGDYGSSDRGRILEPGMVLTVEPGLYIAPDADVPPQYRGIGIRIEDDIVITATGNENLTASVVKDPDDIEALMALNHAGENLYFQE
YPYPYP{LYSN3}NH2
  HPLC Assay Conv; 1 mM Peptide, 1 uM Enzyme, 37 C/1 hr: 100%
